Laboratory results taken from article PMC2730762 (Biochemistry, 2009).

Key:
[1] = tested on: CC[C@H](C)[C@H](NC(=O)[C@@H]1CCCN1C(=O)[C@@H](N)CCCCN)C(=O)N[C@@H](CC(C)C)C(=O)N[C@@H](Cc1ccccc1)C(=O)N[C@@H](Cc1ccc([N+](=O)[O-])cc1)C(=O)N[C@@H](CCCNC(=N)N)C(=O)N[C@@H](CC(C)C)C(=O)O; assay: purified protein, by the assay type; conditions: other: Recombinant K110pN PfPM1
[2] = tested on: CC[C@H](C)[C@H](NC(=O)[C@H](CCCNC(=N)N)NC(=O)[C@H](CCC(=O)O)NC(=O)[C@@H](N)CC(C)C)C(=O)N[C@@H](Cc1ccccc1)C(=O)N[C@@H](Cc1ccc([N+](=O)[O-])cc1)C(=O)N[C@@H](CO)C(=O)N[C@@H](Cc1ccccc1)C(=O)O; assay: purified protein, by the assay type; conditions: other: Recombinant K110pN PfPM1

Recombinant K110pN Plasmepsin 1 (Plasmodium falciparum 3D7)
Km [1]: 13.2 ± 1.7 µM
kcat [1]: 1.1 s⁻¹
kcat/Km [1]: 85000 M⁻¹ s⁻¹
Km [2]: 8.6 ± 0.2 µM
kcat [2]: 2.6 s⁻¹
kcat/Km [2]: 302000 M⁻¹ s⁻¹
